PubChem BioAssay AID624099 | ICCB-Longwood, 2012
In all, the deposit lists about 21,000 reagents; below is a random part of them. 497 of them (2.4%) count as active. 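Higher z means weaker E2 silencing; only reporter increases were scored, and knock-downs that hurt cell survival may mask genuine repressor factors.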 Unmarked entries are inactive. Reagents against one gene are numbered here. Reagent sequences are not shown.

- Purpose: 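Human genes that papillomavirus E2 requires to repress the HPV18 LCR promoter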 (primary screen)
- System: human C33A cervical carcinoma cells (HPV-negative) stably expressing BPV1 E2 and an HPV18 LCR luciferase reporter
- Reagents: siRNA pool against human genes, 40 nM
- Duration: 72 h
- Read-out: 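Per-well luciferase luminescence, z-scored on each plate against the plate mean and SD with control wells left out, then averaged across three replicate plates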
- Direction: mean z-score and z-score: higher = stronger reporter signal, weaker E2 silencing
- Active means: 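Hit if mean z-score reaches 2 and two or more of three replicate z-scores also reach 2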

| Target gene | reagent | mean z-score | z-score, replicate A | z-score, replicate B | z-score, replicate C |
| --- | --- | --- | --- | --- | --- |
| COL17A1 (collagen type XVII alpha 1 chain) | 1 | 0.06 | -0.11 | 0.15 | 0.14 |
| CRAMP1 (cramped chromatin regulator 1) | 1 | -0.31 | 0.03 | -0.01 | -0.96 |
| HCRTR1 (hypocretin receptor 1) | 1 | 1.33 | 1.37 | 1.4 | 1.24 |
| MSANTD4 (Myb/SANT DNA binding domain containing 4 with coiled-coils) | 1 | -0.29 | -0.54 | -0.38 | 0.05 |
| KCNA5 (potassium voltage-gated channel subfamily A member 5) | 1 | -0.69 | -0.78 | -0.75 | -0.54 |
| FAM47B (family with sequence similarity 47 member B) | 1 | -0.71 | -0.77 | -0.61 | -0.73 |
| LOC400298 (retired record) | 1 | -1.71 | -1.65 | -1.76 | -1.7 |
| STIMATE (STIM activating enhancer) | 1 | 0.35 | 0.38 | 0.22 | 0.46 |
| FGFBP3 (fibroblast growth factor binding protein 3) | 1 | -0.18 | -0.47 | -0.11 | 0.04 |
| HENMT1 (HEN methyltransferase 1) | 1 | 1.09 | 1.31 | 0.83 | 1.14 |
| NFATC3 (nuclear factor of activated T cells 3) | 1 | -0.75 | -0.73 | -0.86 | -0.66 |
| LOC388890 (retired record) | 1 | 0.55 | 0.56 | 0.51 | 0.57 |
| LOC339997 (retired record) | 1 | 0.22 | -0.06 | 0.68 | 0.04 |
| MAPKBP1 (mitogen-activated protein kinase binding protein 1) | 1 | 1.59 | 1.34 | 1.39 | 2.04 |
| OPRK1 (opioid receptor kappa 1) | 1 | -0.09 | 0.18 | -0.31 | -0.16 |
| C3 (complement C3) | 1 | 0.01 | 0.01 | 0.02 | 0.01 |
| IFNL2 (interferon lambda 2) | 1 | 0.74 | 0.81 | 0.64 | 0.77 |
| SLC7A7 | 1 | -0.35 | -0.21 | -0.6 | -0.25 |
| CFAP52 (cilia and flagella associated protein 52) | 1 | 0.06 | 0.64 | -0.59 | 0.13 |
| CAV2 (caveolin 2) | 1 | 0.28 | 0.21 | 0.32 | 0.3 |
| AP1S2 (adaptor related protein complex 1 subunit sigma 2) | 1 | -1.82 | -1.49 | -2.27 | -1.71 |
| KCNS1 | 1 | -0.5 | -0.33 | -0.65 | -0.52 |
| MMP28 (matrix metallopeptidase 28) | 1 | -0.99 | -0.98 | -1.17 | -0.81 |
| ZNF566 (zinc finger protein 566) | 1 | 0.16 | 0.03 | 0.05 | 0.41 |
| PEX11G (peroxisomal biogenesis factor 11 gamma) | 1 | 0.01 | 0.42 | -0.36 | -0.03 |
| LRRN4CL (LRRN4 C-terminal like) | 1 | 1.02 | 0.75 | 0.93 | 1.38 |
| LOC399737 (retired record) | 1 | -0.35 | -0.77 | -0.08 | -0.2 |
| SIAH2 (siah E3 ubiquitin protein ligase 2) | 1 | 0.71 | 0.82 | 0.5 | 0.81 |
| FICD (FIC domain protein adenylyltransferase) | 1 | -0.15 | 0.12 | -0.39 | -0.19 |
| RPL17P5 (ribosomal protein L17 pseudogene 5) | 1 | -4.76 | -4.88 | -4.98 | -4.42 |
| PSMA5 (proteasome 20S subunit alpha 5) | 1 | -0.41 | -0.7 | -0.49 | -0.03 |
| LOC388282 | 1 | -0.2 | -0.34 | -0.26 | -0.01 |
| FAM161A (FAM161 centrosomal protein A) | 1 | 1.23 | 1.2 | 1.26 | 1.23 |
| KIAA1328 | 1 | 0.81 | 0.54 | 0.85 | 1.02 |
| ABHD10 (abhydrolase domain containing 10, depalmitoylase) | 1 | -0.29 | -0.63 | -0.03 | -0.21 |
| UFL1 (UFM1 specific ligase 1) | 1 | -0.29 | -0.54 | -0.02 | -0.29 |
| RAB11A (RAB11A, member RAS oncogene family) | 1 | 1.74 | 1.75 | 1.63 | 1.83 |
| SPHK1 (sphingosine kinase 1) | 1 | 3.03 (active) | 3.94 | 2.69 | 2.45 |
| RPL5P18 (ribosomal protein L5 pseudogene 18) | 1 | -0.71 | -0.62 | -0.82 | -0.68 |
| CELF3 (CUGBP Elav-like family member 3) | 1 | -0.24 | -0.32 | 0.07 | -0.46 |
| TDRD1 (tudor domain containing 1) | 1 | 0.59 | 0.6 | 0.53 | 0.65 |
| LRIG3 (leucine rich repeats and immunoglobulin like domains 3) | 1 | -0.91 | -0.72 | -1.18 | -0.82 |
| PPP1R14B (protein phosphatase 1 regulatory inhibitor subunit 14B) | 1 | -0.43 | -0.14 | -0.54 | -0.6 |
| AGPAT4 (1-acylglycerol-3-phosphate O-acyltransferase 4) | 1 | 1.03 | 1.05 | 0.98 | 1.06 |
| NTN3 (netrin 3) | 1 | -0.66 | -0.71 | -0.8 | -0.47 |
| TCEANC | 1 | 0.45 | 0.23 | 0.68 | 0.45 |
| DAZ4 (deleted in azoospermia 4) | 1 | -1.28 | -1.14 | -1.29 | -1.42 |
| ZXDA (zinc finger X-linked duplicated A) | 1 | 0.47 | 0.35 | 0.49 | 0.56 |
| TRIP13 (thyroid hormone receptor interactor 13) | 1 | -0.59 | -0.46 | -0.66 | -0.67 |
| DYNC2I1 (dynein 2 intermediate chain 1) | 1 | 0.88 | 1.29 | 0.75 | 0.6 |
| SPMIP2 (sperm microtubule inner protein 2) | 1 | -0.65 | -0.45 | -0.72 | -0.78 |
| NAA25 (N-alpha-acetyltransferase 25, NatB auxiliary subunit) | 1 | -0.69 | -0.99 | -0.7 | -0.39 |
| ARAP2-AS1 (ARAP2 antisense RNA 1) | 1 | 0.37 | 0.36 | 0.61 | 0.14 |
| LIN7C (lin-7 cell polarity scaffold C) | 1 | 1.22 | 1.27 | 0.99 | 1.41 |
| RPL37P6 (ribosomal protein L37 pseudogene 6) | 1 | -2.9 | -2.56 | -3.25 | -2.9 |
| NR0B2 (nuclear receptor subfamily 0 group B member 2) | 1 | 0.52 | 0.69 | 0.51 | 0.35 |
| NLRC4 (NLR family CARD domain containing 4) | 1 | -0.59 | -1.12 | -0.24 | -0.39 |
| BRK1 (BRICK1 subunit of SCAR/WAVE actin nucleating complex) | 1 | 0.7 | 0.32 | 0.78 | 1.01 |
| ARMC3 (armadillo repeat containing 3) | 1 | 0.45 | 0.27 | 0.57 | 0.5 |
| LINC02159 (long independently transcribed non-coding RNA 2159) | 1 | -0.27 | -0.48 | -0.33 | 0 |
| SRGAP3 (SLIT-ROBO Rho GTPase activating protein 3) | 1 | -0.87 | -0.9 | -0.86 | -0.85 |
| SEL1L (SEL1L adaptor subunit of SYVN1 ubiquitin ligase) | 1 | -0.58 | -0.42 | -0.61 | -0.73 |
| THRB (thyroid hormone receptor beta) | 1 | 1.04 | 1.13 | 0.88 | 1.12 |
| THRB (thyroid hormone receptor beta) | 2 | -0.18 | -0.6 | -0.59 | 0.65 |
| MAP1LC3B (microtubule associated protein 1 light chain 3 beta) | 1 | 1.08 | 1.41 | 0.88 | 0.96 |
| PPIAP80 (peptidylprolyl isomerase A pseudogene 80) | 1 | -0.21 | -0.32 | -0.06 | -0.26 |
| LILRB2 (leukocyte immunoglobulin like receptor B2) | 1 | 0.22 | 0.33 | 0.17 | 0.16 |
| AGPAT4-IT1 (AGPAT4 intronic transcript 1) | 1 | 1.37 | 1.6 | 1.56 | 0.94 |
| EVI5 (ecotropic viral integration site 5) | 1 | 0.56 | 0.8 | 0.31 | 0.57 |
| LOC401322 (retired record) | 1 | -0.77 | -0.72 | -0.8 | -0.79 |
| OTULINL (OTU deubiquitinase with linear linkage specificity like) | 1 | 0.47 | 0.4 | 0.39 | 0.63 |
| HDX (highly divergent homeobox) | 1 | -2.82 | -2.51 | -2.79 | -3.15 |
| ZFHX4 (zinc finger homeobox 4) | 1 | -0.69 | -0.38 | -0.54 | -1.15 |

3 neighbouring reagents already listed, quoted:
| Target gene | reagent | mean z-score | z-score, replicate A | z-score, replicate B | z-score, replicate C |
| --- | --- | --- | --- | --- | --- |
| MMP28 (matrix metallopeptidase 28) | 1 | -0.99 | -0.98 | -1.17 | -0.81 |
| ZNF566 (zinc finger protein 566) | 1 | 0.16 | 0.03 | 0.05 | 0.41 |
| PEX11G (peroxisomal biogenesis factor 11 gamma) | 1 | 0.01 | 0.42 | -0.36 | -0.03 |
